Pooled drug test results. Numbers come from NIAID ChemDB, via PubChem.

Common to all: whole-cell or culture tests; organism: HIV-1; read by: syncytia; measure: fold resistance

An empty or dashed field is not shown.

CO/N=C/c1cc(NC(=S)c2ccoc2C)ccc1OC ; mutations: RT-L100I ; cell line: CEM ; result: 21.5
Cc1occc1C(=S)Nc1ccc(Cl)c(/C=N/N(C)C)c1 ; strain or isolate: HEPT-resistant (RT Y188L) ; mutations: RT-Y188L ; cell line: CEM ; result: <250
CC(C)O/N=C/c1cc(NC(=S)OC(C)C)ccc1Cl ; mutations: RT-L100I ; cell line: CEM ; result: 21
CCCCCCCCCC[N+](C)(C)CCCNCc1c(O)cc2c(c1O)-c1cc(ccc1O)[C@H]1NC(=O)[C@@H]3NC(=O)C4NC(=O)[C@@H](Cc5ccc(c(Cl)c5)Oc5cc3cc(c5O)Oc3ccc(cc3Cl)[C@@H](O)[C@H](NC1=O)C(=O)N[C@@H]2C(=O)O)NC(=O)[C@H](N)c1ccc(O)c(c1)Oc1cc(O)cc4c1 ; mutations: RT-Y181C ; cell line: CEM ; result: 3
CC(C)OC(=O)c1cc(NC(=S)c2ccsc2)ccc1Cl ; mutations: RT-V106A ; cell line: CEM ; result: 19.2
Cc1occc1C(=S)Nc1ccc(Cl)c(OCC=C(Cl)Cl)c1 ; strain or isolate: Nevirapine-resistant isolate (RT V106A) ; mutations: RT-V106A ; cell line: CEM ; result: 6.47
CN1CCN(C(=O)c2ccc3c(=O)c4ccccc4[nH]c3c2)CC1 ; strain or isolate: PYR-resistant (RT Y181C) ; mutations: RT-Y181C ; cell line: CEM ; result: 71.4
CCOCn1c(Cc2cc(C)cc(C)c2)c(CC)c(=O)[nH]c1=O ; strain or isolate: IIIB (TIBO 82150) (RT-L100I) ; mutations: RT-L100I ; cell line: CEM ; result: 8
Cc1sccc1C(=O)Nc1ccc(Cl)c(OCC=C(Cl)Cl)c1 ; strain or isolate: Pyridone-resistant (RT Y181C) ; mutations: RT-Y181C ; cell line: CEM ; result: 27.8
Cc1ccsc1C(=S)Nc1ccc(Cl)c(/C=N/OC(C)(C)C)c1 ; mutations: RT-Y181C ; cell line: CEM ; result: 20
C/C(Cl)=C/COc1cc(NC(=S)c2ccoc2C)ccc1Cl ; strain or isolate: TIBO R82913-resistant (RT K103N) ; mutations: RT-K103N ; cell line: CEM ; result: 30
Cc1ccccc1C(=S)Nc1ccc(Cl)c(C(=O)OC(C)C)c1 ; mutations: RT-V106A ; cell line: CEM ; result: 31.2
CC1=C(C(=O)Nc2ccc(C)c(C(=O)OC(C)C)c2)SCCO1 ; strain or isolate: PYR-resistant (RT Y181C) ; mutations: RT-Y181C ; cell line: CEM ; result: 13.3
CC(C)OC(=O)c1cc(NC(=S)N(C)C(C)C)ccc1Cl ; mutations: RT-Y181C ; cell line: CEM ; result: >1
Cn1cccc1C(=S)Nc1ccc(Cl)c(/C=N/OC(C)(C)C)c1 ; mutations: RT-Y188L ; cell line: CEM ; result: >69.1
C=C(Cl)COc1cc(NC(=S)c2ccoc2C)ccc1Cl ; strain or isolate: TIBO R82913-resistant (RT K103N) ; mutations: RT-K103N ; cell line: CEM ; result: 13.8
CCCC1=C(C(=O)Nc2ccc(Cl)c(C(=O)OC)c2)SCCO1 ; strain or isolate: TIBO-resistant (RT L100I) ; mutations: RT-L100I ; cell line: CEM ; result: 8.67
CC1=C(C(=O)Nc2ccc(Cl)c(/C=N/OC(C)(C)C)c2)CCCO1 ; mutations: RT-L100I ; cell line: CEM ; result: 3.57
CO/N=C/c1cc(NC(=S)OC(C)C)ccc1Cl ; mutations: RT-V106A ; cell line: CEM ; result: 100
CCCC1=C(C(=O)Nc2ccc(Cl)c(C(=O)OCC)c2)SCCO1 ; strain or isolate: TIBO-resistant (RT L100I) ; mutations: RT-L100I ; cell line: CEM ; result: 3.67
CCCCOC(=S)Nc1ccc(Cl)c(C(=O)OC(C)C)c1 ; mutations: RT-Y181C ; cell line: CEM ; result: 117
C=C(C)[C@@H]1CC[C@]2(C(=O)NCCCCCCCC(=O)N[C@@H](CC(C)C)[C@@H](O)CC(=O)O)CC[C@]3(C)[C@H](CC[C@@H]4[C@@]5(C)CC[C@H](O)C(C)(C)[C@@H]5CC[C@]43C)[C@@H]12 ; strain or isolate: LAI ; mutations: GP41-Q39H ; cell line: HeLa P4 + HeLa ; result: ~1
COc1ccc(NC(=O)C2=C(C)OCCS2)cc1OCC=C(Cl)Cl ; strain or isolate: Nevirapine-resistant isolate (RT V106A) ; mutations: RT-V106A ; cell line: CEM ; result: 2.5
Cc1occc1C(=S)Nc1ccc(Cl)c(/C=N/OC(C)(C)C)c1 ; strain or isolate: IIIB ; mutations: RT-Y181C ; cell line: CEM ; result: 2
Cc1occc1C(=S)Nc1ccc(Cl)c(C(=O)OC(C)C)c1 ; mutations: RT-L100I ; cell line: CEM ; result: 85
CSCCOC(=S)Nc1ccc(Cl)c(C(=O)OC(C)C)c1 ; mutations: RT-Y181C ; cell line: CEM ; result: 13.3
Cc1occc1C(=S)Nc1ccc(Cl)c(/C=N/OCc2ccccc2)c1 ; mutations: RT-L100I ; cell line: CEM ; result: >3.33
CCOC(=O)c1cc(NC(=S)OC(C)C)ccc1C ; mutations: RT-V106A ; cell line: CEM ; result: ≥3230
CC1=C(C(=O)Nc2ccc(Cl)c(C(=O)OCC3CCC3)c2)SCCO1 ; strain or isolate: TSAO-resistant (RT E138K) ; mutations: RT-E138K ; cell line: CEM ; result: 52.9
O=S(=O)(Cc1ccccc1I)c1cccc[n+]1[O-] ; strain or isolate: IIIB ; mutations: RT-K103N ; cell line: CEM ; result: 1.125
CC(C)OC(=S)Nc1ccc(Cl)c(C(=O)OC2(C)COC2)c1 ; mutations: RT-E138K ; cell line: CEM ; result: 14
Cc1occc1C(=O)Nc1ccc(Cl)c(SCC=C(Cl)Cl)c1 ; strain or isolate: Nevirapine-resistant isolate (RT V106A) ; mutations: RT-V106A ; cell line: CEM ; result: 8.6
CC(C)OC(=S)Nc1ccc(Cl)c(C(=O)OCc2ccccc2)c1 ; mutations: RT-Y181C ; cell line: CEM ; result: 15.7
Cc1ccc(C)c(CS(=O)c2ccc(Cl)c[n+]2[O-])c1 ; strain or isolate: IIIB ; mutations: RT-L100I ; cell line: CEM ; result: 2.3
CC1=C(C(=S)Nc2ccc(Cl)c(/C=N/OC(C)(C)C)c2)CCO1 ; mutations: RT-V106A ; cell line: CEM ; result: 4.76
COc1ccc(C)cc1CS(=O)(=O)c1cccc[n+]1[O-] ; strain or isolate: IIIB ; mutations: RT-E138K ; cell line: CEM ; result: 8.47
C/C=C/COc1cc(NC(=S)c2ccn(C)c2C)ccc1Cl ; mutations: RT-V106A ; cell line: CEM ; result: 37.9
CC(C)OC(=O)c1cc(NC(=S)OC(C)C)ccc1Cl ; strain or isolate: IIIB ; mutations: RT-Y188H ; cell line: CEM ; result: 72
CC(C)OC(=S)Nc1ccc(Cl)c(C(=O)SC(C)C)c1 ; mutations: RT-V106A ; cell line: CEM ; result: 95.4
Cc1occc1C(=S)Nc1ccc(Cl)c(OC(=O)OC(C)C)c1 ; mutations: RT-Y181C ; cell line: CEM ; result: 0.273
CC1=C(C(=O)Nc2cc(C(=O)OC(C)C)c(F)cc2F)SCCO1 ; strain or isolate: Nevirapine-resistant (RT V106A) ; mutations: RT-V106A ; cell line: CEM ; result: >11.8
CC(C)c1c(Sc2ccccc2)n(COCCO)c(=S)[nH]c1=O ; strain or isolate: IIIB TIBO R82913-resistant (RT K103N) ; mutations: RT-K103N ; cell line: CEM ; result: >50
Cc1ccsc1C(=O)Nc1ccc(Cl)c(/C=N/OC(C)(C)C)c1 ; mutations: RT-Y181C ; cell line: CEM ; result: 13
CCCCCCCCCC[N+](C)(C)CCCNCc1c(O)cc2c(c1O)-c1cc(ccc1O)[C@H]1NC(=O)[C@@H]3NC(=O)C4NC(=O)[C@@H](Cc5ccc(c(Cl)c5)Oc5cc3cc(c5O)Oc3ccc(cc3Cl)[C@@H](O)[C@H](NC1=O)C(=O)N[C@@H]2C(=O)O)NC(=O)[C@H](N)c1ccc(O)c(c1)Oc1cc(O)cc4c1 ; mutations: RT-L100I ; cell line: CEM ; result: 1.89
CC(C)OC(=O)Nc1ccc(Cl)c(C(=O)OC(C)C)c1 ; mutations: RT-V106A ; cell line: CEM ; result: >1.82
Cc1occc1C(=S)Nc1ccc(Cl)c(/C=N/OC(C)(C)C)c1 ; strain or isolate: IIIB ; mutations: RT-K103N ; cell line: CEM ; result: 8
CC(=O)COc1cc(NC(=S)OC(C)C)ccc1Cl ; mutations: RT-V106A ; cell line: CEM ; result: 9.99
CCOCn1c(Sc2ccccc2)c(CC)c(=O)[nH]c1=O ; strain or isolate: IIIB TIBO R82913-resistant (RT K103N) ; mutations: RT-K103N ; cell line: CEM ; result: 257
COc1ccc(NC(=S)c2ccoc2C)cc1OCC=C(Cl)Cl ; strain or isolate: Nevirapine-resistant isolate (RT V106A) ; mutations: RT-V106A ; cell line: CEM ; result: 6.42
Cc1ccsc1C(=O)Nc1ccc(Cl)c(C(=O)OC2CCCCC2)c1 ; mutations: RT-L100I ; cell line: CEM ; result: 28.3
CCOC(=O)C(C)Oc1cc(NC(=S)OC(C)C)ccc1Cl ; mutations: RT-E138K ; cell line: CEM ; result: 3.08
C/C=C/COc1cc(NC(=S)c2ccoc2C)ccc1Cl ; mutations: RT-L100I ; cell line: CEM ; result: 85
CC(C)OC(=O)c1cc(NC(=S)SC(C)C)ccc1Cl ; mutations: RT-V106A ; cell line: CEM ; result: >1.54
O=C(Nc1ccc(Cl)c(C(=O)OC2CCCCC2)c1)c1ccccc1F ; strain or isolate: IIIB ; mutations: RT-Y181C ; cell line: CEM ; result: 8.33
CC(C)OC(=S)Nc1ccc(Cl)c(C(=O)OC(C(C)C)C(C)C)c1 ; mutations: RT-E138K ; cell line: CEM ; result: ≥14.3
Cc1ccsc1C(=S)Nc1ccc(Cl)c(C(=O)OC(C(C)C)C(C)C)c1 ; mutations: RT-K103N ; cell line: CEM ; result: 961
C/C=C/COc1cc(NC(=S)OC(C)C)ccc1Cl ; mutations: RT-Y181C ; cell line: CEM ; result: 13.7
CCC1=C(C(=O)Nc2ccc(Cl)c(C(=O)OCC(C)C)c2)SCCO1 ; strain or isolate: TSAO-resistant (RT E138K) ; mutations: RT-E138K ; cell line: CEM ; result: 10
CC(C)=CCOc1cc(NC(=S)c2ccsc2C)ccc1Cl ; mutations: RT-Y181C ; cell line: CEM ; result: 4.11
CC(C)=CCOc1cc(NC(=S)c2ccoc2C)ccc1Cl ; strain or isolate: IIIB ; mutations: RT-V106A ; cell line: CEM ; result: 1.7
COc1ccc(NC(=S)OC(C)C)cc1CC(=O)OC(C)C ; mutations: RT-Y181C ; cell line: CEM ; result: 67.6
CC(C)c1c(Sc2ccccc2)n(COCCO)c(=O)[nH]c1=O ; strain or isolate: IIIB ; mutations: Nevirapine resistant (RT Y181C) ; cell line: CEM ; result: 96.4
C=CCOC(=S)Nc1ccc(Cl)c(C(=O)OC(C)C)c1 ; mutations: RT-Y181C ; cell line: CEM ; result: 92.3
O=C(Nc1ccc(Cl)c(C(=O)OC2CCCCC2)c1)c1ccccc1F ; mutations: RT-E138K ; cell line: CEM ; result: 6.875
CC1=C(C(=O)Nc2cccc(C(=O)OC(C)C)c2)SCCO1 ; strain or isolate: Nevirapine-resistant (RT V106A) ; mutations: RT-V106A ; cell line: CEM ; result: >2.5
C/C=C/CSc1cc(NC(=S)c2ccoc2C)ccc1Cl ; mutations: RT-V106A ; cell line: CEM ; result: 6.25
CC1=C(C(=O)Nc2ccc(Cl)c(C(=O)OC(C)C)c2)SCCO1 ; mutations: RT-Y181C ; cell line: CEM ; result: 1000

The last 6 rows once more:

| compound | strain or isolate | mutations | cell line | result |
|---|---|---|---|---|
| CC(C)c1c(Sc2ccccc2)n(COCCO)c(=O)[nH]c1=O | IIIB | Nevirapine resistant (RT Y181C) | CEM | 96.4 |
| C=CCOC(=S)Nc1ccc(Cl)c(C(=O)OC(C)C)c1 | - | RT-Y181C | CEM | 92.3 |
| O=C(Nc1ccc(Cl)c(C(=O)OC2CCCCC2)c1)c1ccccc1F | - | RT-E138K | CEM | 6.875 |
| CC1=C(C(=O)Nc2cccc(C(=O)OC(C)C)c2)SCCO1 | Nevirapine-resistant (RT V106A) | RT-V106A | CEM | >2.5 |
| C/C=C/CSc1cc(NC(=S)c2ccoc2C)ccc1Cl | - | RT-V106A | CEM | 6.25 |
| CC1=C(C(=O)Nc2ccc(Cl)c(C(=O)OC(C)C)c2)SCCO1 | - | RT-Y181C | CEM | 1000 |

Fold resistance has wild type as its base. Neighbouring rows are from separate reports.